Experimental data reported in article PMC10716778 (The Journal of Biological Chemistry, 2023).

Molecular target: KPC-44 (Klebsiella pneumoniae, UniProt Q9F663, DUP260-274)
Type: biochemical
Settings: substrate hydrolysis by KPC-44, 30 °C

CC(C)(O/N=C(\C(=O)N[C@@H]1C(=O)N2C(C(=O)[O-])=C(C[n+]3ccccc3)CS[C@H]12)c1csc(N)n1)C(=O)O [Ceftazidime]
kcat (50 mM sodium phosphate pH 7): >1.5 s⁻¹
Km (pH 7): > 600 µM
